A mixed list of measured activities; the numbers were collected in NIAID ChemDB.

Common to all: tests in culture; organism: Mycobacterium tuberculosis

MIC50, MIC90 and the like: level of inhibition, or share of isolates inhibited.

compound	conditions	endpoint	mutations	dose	strain or isolate	method	value
Cc1nc2ccccc2nc1C(=O)CN(C)C1CCCCC1		MIC			H37Rv	resazurin	50 µg/mL
O=C(N/N=C/c1ccc([N+](=O)[O-])s1)c1cnccn1		MIC			ATCC 27294	resazurin	>100 µg/mL
O=C(Nc1sc(-c2ccc(OCc3c(Cl)cccc3Cl)cc2)cc1C(=O)O)c1ccc(Cl)cc1		EC50			H37Rv	resazurin	53.81 µM
O=c1oc2ccc([N+](=O)[O-])cc2c(=O)n1-c1cccc(Cl)c1		MIC			CNCTC MY331/88		16 µM
O=C(N/N=C/c1ccc[nH]1)c1cnccn1		MIC			ATCC 27294	resazurin	>100 µg/mL
COC(=O)C1=C2Nc3ccccc3[C@@]23CCN2C3[C@]3(CCO[C@H]3[C@@]3(CC4C[C@]56CCO[C@H]5CCN5CC[C@H](C4N(c4ccccc4OC)C3)C56)[C@H]2O)C1		MIC90			H37Rv	resazurin	>50 µg/mL
O=C(Oc1cc(Cl)ccc1C(=O)Nc1ccc(C(F)(F)F)cc1)c1cnccn1	14 d	MIC100			H37Rv	broth dilution	0.5 µM
N#C/C(=C\c1cccc(I)c1)n1nnc2ccccc21		MIC50			ATCC 27294		58.2 µM
COc1cc([C@@H]2OC[C@@]3(O)[C@@H]2CO[C@H]3c2ccc(O)c(OC)c2)ccc1O		MIC			H37Rv		127 µg/mL
CCc1ccc(NC(=S)c2cc(Cl)ccc2O)cc1		MIC			My 331/88		1 µM
S=c1[nH]c2ccccc2c(=S)n1-c1ccc(Cl)c(Cl)c1		MIC			331/81		16 µM
COc1ccc(-c2cc(=O)c3c(O)cc(O)cc3o2)cc1O		MIC			H37Rv		>128 µg/mL
N#Cc1ccc(Nc2nc(Oc3cccc4cccnc34)nc(N3CCC(Cc4ccccc4)CC3)n2)cc1C(F)(F)F		MIC			H37Rv	BACTEC	>6.25 µg/mL
O=[N+]([O-])C1CN=C(NC(c2ccc(OCc3ccccc3)cc2)C2CC2)S1		MIC					>25 µg/mL
COc1ccccc1C(=O)Nc1sc(-c2ccc(OCc3c(Cl)cccc3Cl)cc2)cc1C(=O)O		MIC			H37Rv	resazurin	>128 µM
O=C(Nc1ccc(C(F)(F)F)cc1)c1ccc(Cl)cc1OS(=O)(=O)c1ccccc1	14 d	MIC100			H37Rv	broth dilution	1 µM
CC1COC2(CCN(c3nc(=O)c4cc(C(F)(F)F)cc([N+](=O)[O-])c4s3)CC2)O1		MIC			NTB9		0.25 µg/mL
COc1ccc(-c2oc3cc(O)c(OC)c(O)c3c(=O)c2OC)cc1		MIC			H37Rv		46.2 µg/mL
CCN(CC)CC(=O)c1nc2ccccc2nc1C		MIC			H37Rv	resazurin	50 µg/mL
O=C(Nc1sc(-c2ccc(OCc3ccc(Cl)c(Cl)c3)cc2)cc1C(=O)O)c1ccc(Cl)cc1		EC50			H37Rv	resazurin	28.21 µM
COc1ccc(N2CCN(c3nc(Nc4ccc(C#N)c(C(F)(F)F)c4)nc(Oc4cccc5cccnc45)n3)CC2)cc1		MIC99			H37Rv	BACTEC	6.25 µg/mL
O=c1oc2ccc(F)cc2c(=O)n1-c1ccccc1		MIC			CNCTC MY331/88		62 µM
COC(=O)C1=C2Nc3ccccc3[C@@]23CCN2C3[C@]3(CCO[C@H]3[C@@]3(CC4C[C@]56CC(=O)O[C@H]5CCN5CC[C@H](C4N(c4ccccc4OC)C3)C56)[C@H]2O)C1		MIC90			H37Rv		5.2 µg/mL
CO[C@H]1/C=C/O[C@@]2(C)Oc3c(C)c(O)c4c(O)c(c(/C=N/N5CCN6CCCCC6C5)c(O)c4c3C2=O)NC(=O)/C(C)=C\C=C\[C@H](C)[C@H](O)[C@@H](C)[C@@H](O)[C@@H](C)[C@H](OC(C)=O)[C@@H]1C		MIC			23 strains (rifampicin-susceptible)		≤0.16 µg/mL
Cc1nc2ccccc2nc1C(=O)CSCCO		MIC			H37Rv	resazurin	50 µg/mL
CC(C)(C)c1cc(C(C)(C)C)c2oc(-c3ccccc3Br)nc2c1		MIC			H37Rv		>128 µg/mL
CCOC(=O)c1c(-c2ccc(-c3ccc(Cl)cc3)cc2)[nH]c2ccccc2c1=O		inhibition		5 µM	H37Rv	fluorescence	17.8%
CC(C)(C)c1cc(C(C)(C)C)c2oc(-c3ccsc3)nc2c1		inhibition		6.25 µg/mL	H37Rv	BACTEC	<90%
NNC(=O)c1ccncc1		MIC	Rv2466c W28S		53.3	resazurin	0.025 µg/mL
O=c1oc2ccc(Cl)cc2c(=O)n1-c1cccc(Cl)c1		MIC			CNCTC MY331/88		8 µM
O=C(N/N=C/c1ccc(-c2ccccn2)cc1)c1cnccn1		MIC			ATCC 27294	resazurin	>100 µg/mL
O=C(Nc1sc(-c2ccc(OCc3c(Cl)cccc3Cl)cc2)cc1C(=O)O)c1cccc(Cl)c1		EC50			H37Rv	resazurin	89.78 µM
COc1cc(-c2cc(=O)c3c(O)cc(O)cc3o2)cc(OC)c1O		MIC			H37Rv		58.5 µg/mL
N#C/C(=C\c1cccc(F)c1F)n1nnc2ccccc21		MIC90			ATCC 27294		92.4 µM
C=C[C@@H](O)C#CC#CC[C@H]1O[C@H]1CCCCCCC		MIC			H37Ra	resazurin	36 µM
CC(C)(C)c1cc(C(C)(C)C)c2oc(/C=C/c3ccccc3)nc2c1		inhibition		6.25 µg/mL	H37Rv	BACTEC	100%
CCOC(=O)c1cc(-c2ccc(OCc3c(Cl)cccc3Cl)cc2)sc1NC(=O)C(=O)O		MIC			H37Rv	resazurin	1.9 µM
O=C1c2n[nH]nc2C(=O)c2n[nH]nc21		MIC bound			H37Rv	BACTEC	>12.5 µg/mL
Cc1c(-c2ccc(-c3ccc(OC(F)(F)F)cc3)nc2)[nH]c2ccccc2c1=O		inhibition		5 µM	H37Rv	fluorescence	11.1%
CCCCc1ccc(NC(=S)c2cc(Cl)ccc2O)cc1		MIC			My 331/88		4 µM
N#C/C(=C\c1ccc(C#N)cc1)n1nnc2ccccc21		MIC50			ATCC 27294		>100 µM
CC(=O)NCCSCC(=O)c1nc2ccccc2nc1C		MIC			H37Rv	resazurin	50 µg/mL
CCOC(=O)c1ccc(-n2c(=O)oc3cc(OC)ccc3c2=O)cc1		MIC			CNCTC MY331/88		8 µM
N#Cc1ccc(Nc2nc(Oc3cccc4cccnc34)nc(N3CCN(c4ccccc4F)CC3)n2)cc1C(F)(F)F		MIC99			H37Rv	agar	25 µg/mL
COC(=O)Nc1sc(-c2ccc(OCc3c(Cl)cccc3Cl)cc2)cc1C(=O)O		EC50			H37Rv	resazurin	21.31 µM
COc1cc([C@H]2OC[C@]3(O)[C@@H](c4ccc(O)c(OC)c4)OC[C@H]23)ccc1O		MIC			H37Rv		>128 µg/mL
O=c1oc2ccc([N+](=O)[O-])cc2c(=O)n1-c1cccc(F)c1		MIC			CNCTC MY331/88		31 µM
CO[C@H]1/C=C/O[C@@]2(C)Oc3c(C)c(O)c4c(O)c(c5c(c4c3C2=O)NC2(CCN(CC(C)C)CC2)N=5)=NC(=O)/C(C)=C\C=C\[C@H](C)[C@H](O)[C@@H](C)[C@@H](O)[C@@H](C)[C@H](OC(C)=O)[C@@H]1C		MIC			23 strains (rifampicin-susceptible)		≤0.08 µg/mL
N#C/C(=C\c1ccc(F)cc1F)n1nnc2ccccc21		MIC90			ATCC 27294		>100 µM
CCC(C)c1ccc(NC(=S)c2cc(Cl)ccc2O)cc1		MIC			My 331/88		2 µM
O=c1oc2ccccc2c(=O)n1-c1cccc(Cl)c1		MIC			CNCTC MY331/88		31 µM
Sc1cccc2cccnc12		MIC			2 strains		31 µM
CO[C@H]1/C=C/O[C@@]2(C)Oc3c(C)c(O)c4c(O)c(c(N5CCN(Cc6c(C)cc(C)cc6C)CC5)c(O)c4c3C2=O)NC(=O)/C(C)=C\C=C\[C@H](C)[C@H](O)[C@@H](C)[C@@H](O)[C@@H](C)[C@H](OC(C)=O)[C@@H]1C		MIC			23 strains (rifampicin-susceptible)		≤0.08 µg/mL
O=C(Oc1cc(Br)ccc1C(=O)Nc1ccc(C(F)(F)F)cc1)c1cnccn1	14 d	MIC100			H37Rv	broth dilution	0.5 µM
O=c1cc(-c2ccc(Cc3ccc(OC(F)(F)F)cc3)cc2)n(O)c2ccccc12		inhibition		5 µM	H37Rv	fluorescence	0%
COc1ccc2nc3cc(Cl)ccc3c(Nc3cc(CN4CCCC4)c(O)c(CN4CCCC4)c3)c2n1		MIC	ethA D1109-37		81.10	resazurin	5–10 µg/mL
Cc1ccc(-n2c(=S)oc3c(Cl)cc(Cl)cc3c2=S)cc1		MIC			331/81		4 µM
N#Cc1ccc(Nc2nc(Oc3cccc4cccnc34)nc(N3CCN(c4cccc(C(F)(F)F)c4)CC3)n2)cc1C(F)(F)F		MIC99			H37Rv	agar	6.25 µg/mL
CC(=O)NC[C@H]1CN(c2ccc(N3CCOCC3)c(F)c2)C(=O)O1		MIC			H37Rv		0.5 µg/mL
Oc1ccc(Cl)cc1C(=S)Nc1ccc(F)cc1		MIC			My 331/88		1 µM
COc1ccc2oc(=O)n(-c3ccc(Cl)c(Cl)c3)c(=O)c2c1		MIC			CNCTC MY331/88		62.5 µM
O=C(Nc1ccccc1)c1ccccc1O	14 d	MIC100			H37Rv	broth dilution	62.5 µM
CC(C)(C)c1cc(C(C)(C)C)c2oc(-c3ccc(F)c(Oc4ccccc4)c3)nc2c1		inhibition		6.25 µg/mL	H37Rv	BACTEC	<90%
Cc1ccc(-n2c(=O)oc3ccc(C)cc3c2=O)cc1		MIC			CNCTC MY331/88		62.5 µM
COc1ccc2c(=O)c(C)c(-c3ccc(N4CCCCC4)cc3)[nH]c2c1		inhibition		5 µM	H37Rv	fluorescence	100%
CC1(C)CC[C@]2(C(=O)O)CC[C@]3(C)C(=CCC4[C@@]5(C)CC[C@H](O)C(C)(C)C5CC[C@]43C)C2C1		MIC			H37Rv		28.7 µg/mL
O=C(N/N=C/c1ccccn1)c1cnccn1		MIC			ATCC 27294	resazurin	>100 µg/mL
O=c1oc2cc(Cl)ccc2c(=O)n1-c1ccc(Cl)c(Cl)c1		MIC			CNCTC MY331/88		4 µM
c1ccc(Nc2nc(N/N=C3\CN4CCC3CC4)nc(N3CCCCC3)n2)cc1		MIC			H37Rv	MTT	0.1 µg/mL
CC(C)(C)c1cc(C(C)(C)C)c2oc(-c3ccccc3O)nc2c1		MIC			H37Rv	BACTEC	>6.25 µg/mL
S=c1[nH]c2ccccc2c(=S)n1-c1ccccc1		MIC			331/81		32 µM
CCCCCCNc1sc(-c2ccc(OCc3c(Cl)cccc3Cl)cc2)cc1C(=O)O		MIC			H37Rv	resazurin	58.5 µM
O=C(N/N=C/c1ncc[nH]1)c1cnccn1		MIC			ATCC 27294	resazurin	50 µg/mL
S=c1oc2c(Cl)cc(Cl)cc2c(=S)n1-c1ccc(Cl)cc1		MIC			331/81		16 µM
O=C(CSc1nnc(-c2ccncc2)s1)Nc1ccccc1Cl		MIC			H37Rv	turbidity / absorbance	6.81 µM
Cc1c(-c2cnn(Cc3ccc(OC(F)(F)F)cc3)c2)[nH]c2ccccc2c1=O		inhibition		5 µM	H37Rv	fluorescence	2.6%
CC(C)(C)c1cc(C(C)(C)C)c2oc(-c3c[nH]c4ccccc34)nc2c1		inhibition		6.25 µg/mL	H37Rv	BACTEC	<90%
O=C(Nc1sc(-c2ccc(OCc3c(Cl)cccc3Cl)cc2)cc1C(=O)O)c1ccccc1F		EC50			H37Rv	resazurin	28.64 µM

A second listing of 9 rows from above:

compound | conditions | endpoint | mutations | dose | strain or isolate | method | value
CC(C)(C)c1cc(C(C)(C)C)c2oc(-c3ccccc3O)nc2c1 |  | MIC |  |  | H37Rv | BACTEC | >6.25 µg/mL
O=C(Nc1ccccc1)c1ccccc1O | 14 d | MIC100 |  |  | H37Rv | broth dilution | 62.5 µM
CCCCc1ccc(NC(=S)c2cc(Cl)ccc2O)cc1 |  | MIC |  |  | My 331/88 |  | 4 µM
O=C(Nc1sc(-c2ccc(OCc3c(Cl)cccc3Cl)cc2)cc1C(=O)O)c1ccc(Cl)cc1 |  | EC50 |  |  | H37Rv | resazurin | 53.81 µM
Cc1ccc(-n2c(=S)oc3c(Cl)cc(Cl)cc3c2=S)cc1 |  | MIC |  |  | 331/81 |  | 4 µM
N#Cc1ccc(Nc2nc(Oc3cccc4cccnc34)nc(N3CCN(c4ccccc4F)CC3)n2)cc1C(F)(F)F |  | MIC99 |  |  | H37Rv | agar | 25 µg/mL
COc1ccc(-c2cc(=O)c3c(O)cc(O)cc3o2)cc1O |  | MIC |  |  | H37Rv |  | >128 µg/mL
N#C/C(=C\c1cccc(I)c1)n1nnc2ccccc21 |  | MIC50 |  |  | ATCC 27294 |  | 58.2 µM
Cc1c(-c2ccc(-c3ccc(OC(F)(F)F)cc3)nc2)[nH]c2ccccc2c1=O |  | inhibition |  | 5 µM | H37Rv | fluorescence | 11.1%

Two numbers with a dash give a range or band. MIC bound comes from a single tested concentration. Rows are shuffled and stem from different studies. ECn is the concentration giving n% inhibition of infection, replication or growth. Inhibition is in % at the dose shown (toxicity tests: loss of growth or viability). Blank or dashed fields: not listed here.